Laboratory results: PubChem BioAssay AID1251 (SRMLSC, 2008)
Only a part is listed here, and it is no random draw. Calls of active or inactive are those of the source. Cut-off read from the data, not from the text of the source: active = inhibition above about 30%; inactive = the rest, inconclusive results apart.

Test: antivirals against arbovirus infection, primary screen, cell-based, full library, 10K replicate subset (AID 1251)
Conditions: arbovirus infection cell-based antiviral screen; at 10 µM; active compounds read high

**Q.** For `O=C(NC1CCS(=O)(=O)C1)NP(=S)(Oc1ccccc1)Oc1ccccc1` (stereo unspecified), which inhibition is on record?
**A.** The inhibition was inactive: 1.14%.
